Pooled drug test results. Numbers come from NIAID ChemDB, via PubChem.

Common to all: enzyme or target tests

Conditions beyond the fields shown may differ between rows. ICn is the concentration giving n% inhibition. Inhibition is in % at the dose shown (toxicity tests: loss of growth or viability).

O=C(O)CCc1ccc(N2C(=O)C(=Cc3ccc(-c4ccc(Cl)c(Cl)c4)o3)SC2=S)cc1 ; species: Bovine viral diarrhea virus ; target: NS5 polymerase ; read-out: IC50 ; value: ≤1 µM
COc1ccc(N2CCN(c3cncc(-c4ccc(Oc5ccccc5)cc4)n3)CC2)cc1OC ; species: Cytomegalovirus ; target: UL97 kinase ; read-out: IC50 ; value: <100 µM
CCc1sc2nc(N)nc(N)c2c1-c1ccc(Cl)cc1 ; species: Cryptosporidium parvum ; strain: TYPE 2 ; target: Dihydrofolate reductase ; read-out: IC50 ; value: >10 µM
O=C(O)CCCCCc1ccc(N2C(=O)C(=Cc3ccc(-c4ccc(Cl)c(Cl)c4)o3)SC2=S)cc1 ; species: Bovine viral diarrhea virus ; target: NS5 polymerase ; read-out: IC50 ; value: ≤1 µM
Nc1nc(N)c2c(n1)CCC(Cc1ccsc1)C2 ; species: Cryptosporidium parvum ; strain: TYPE 1 ; target: Dihydrofolate reductase ; read-out: IC50 ; value: 1 µM
N#Cc1ccccc1N1CCN(c2cncc(-c3ccc(Cl)cc3)n2)CC1 ; species: Cytomegalovirus ; tested at: 1 µM ; target: UL97 kinase ; read-out: inhibition ; value: <50%
O=C(O)CCN1C(=O)C(=Cc2ccc(C#Cc3ccccc3)o2)SC1=S ; species: Bovine viral diarrhea virus ; target: NS5 polymerase ; read-out: IC50 ; value: ≤1 µM
COc1cc(N(C)Cc2c(Br)sc3nc(N)nc(N)c23)cc(OC)c1OC ; species: Cryptosporidium parvum ; strain: TYPE 2 ; target: Dihydrofolate reductase ; read-out: IC50 ; value: >10 µM
FC(F)(F)c1cc(-c2cncc(N3CCN(c4ccncc4)CC3)n2)cc(C(F)(F)F)c1 ; species: Cytomegalovirus ; tested at: 10 µM ; target: UL97 kinase ; read-out: inhibition ; value: >15%
COc1ccc(OC)c(NCc2cnc3nc(N)nc(N)c3n2)c1 ; species: Cryptosporidium parvum ; strain: TYPE 1 ; target: Dihydrofolate reductase ; read-out: IC50 ; value: 3.2 µM
O=C(O)c1ccc(N2C(=O)C(=Cc3ccc(-c4nccs4)o3)SC2=S)cc1 ; species: Bovine viral diarrhea virus ; target: NS5 polymerase ; read-out: IC50 ; value: ≤1 µM
O=C(Nc1nnc(NCc2ccc3c(c2)OCO3)s1)c1ccc(Br)cc1 ; species: Human cytomegalovirus ; target: Polymerase ; read-out: IC50 ; value: >25 µM
Oc1ccc(-c2cncc(N3CCN(c4ccncc4)CC3)n2)cc1 ; species: Cytomegalovirus ; tested at: 10 µM ; target: UL97 kinase ; read-out: inhibition ; value: >15%
COc1ccccc1C(=O)Nc1nnc(NCCc2ccccc2)s1 ; species: Human cytomegalovirus ; target: Polymerase ; read-out: IC50 ; value: >25 µM
CN(Cc1ccc2nc(N)nc(N)c2n1)c1ccc(C(=O)NC23CC4CC(CC(C4)C2)C3)cc1 ; species: Cryptosporidium parvum ; strain: TYPE 2 ; target: Dihydrofolate reductase ; read-out: IC50 ; value: 1.8 µM
CC(C)c1cc(C(C)C)c(C(=O)Nc2nnc(NCc3ccc4c(c3)OCO4)s2)c(C(C)C)c1 ; species: Human cytomegalovirus ; target: Polymerase ; read-out: IC50 ; value: >25 µM
COc1ccc2cc(-c3cncc(N4CCN(c5ccccc5OC)CC4)n3)ccc2c1 ; species: Cytomegalovirus ; tested at: 10 µM ; target: UL97 kinase ; read-out: inhibition ; value: >15%
Nc1nc(N)c2cc(Cl)ccc2n1 ; species: Cryptosporidium parvum ; strain: TYPE 1 ; target: Dihydrofolate reductase ; read-out: IC50 ; value: >10 µM
O=C(Nc1nnc(NCCCN2CCCC2=O)s1)c1ccc2c(c1)C(=O)OC2=O ; species: Human cytomegalovirus ; target: Polymerase ; read-out: IC50 ; value: >25 µM
COc1cc(CN2CCc3nc(N)nc(N)c3C2)cc(OC)c1OC ; species: Cryptosporidium parvum ; strain: TYPE 2 ; target: Dihydrofolate reductase ; read-out: IC50 ; value: >10 µM
O=C(Nc1nnc(NCCCNC2CCCCC2)s1)c1ccc(Cl)c(Cl)c1 ; species: Human cytomegalovirus ; target: Polymerase ; read-out: IC50 ; value: >25 µM